Measured values from several laboratories, pooled; numbers as filed in NIAID ChemDB.

Common to all: tests in culture; agent: HIV-1; read-out: fold resistance

Fold resistance has wild type as its base. Lines come from different laboratories, so protocols vary.

O=c1[nH]cnc2c1ncn2[C@H]1CC[C@@H](CO)O1 ; cells: CEM ; read by: syncytia ; strain: IIIB TSAO-T(RT-E138K) ; mutations: RT-E138K ; result: 2
Nc1nc(=O)n([C@@H]2CO[C@H](CO)S2)cc1F ; cells: CBMC ; read by: RT activity ; strain: HXB2D (RT-K65R) ; mutations: RT-K65R ; result: 3.21
CC(C)CN(C[C@@H](O)[C@H](Cc1ccccc1)NC(=O)O[C@H]1CCOC1)S(=O)(=O)c1ccc(N)cc1 ; cells: MT-4 ; read by: p24 / luminescence ; strain: NL4-3 ; mutations: L10I I54V K20R L24I V32I L33F M36I M46I I54M L63P K70Q V82I I84V L89M ; result: >27
CCCc1cc(=O)oc2c3c(c4c(c12)OC(C)(C)C=C4)O[C@H](C)[C@@H](C)[C@@H]3O ; cells: CEM + CEM-SS ; read by: cytopathic effect / XTT ; strain: IIIB(DPS-R(III)) ; mutations: RT-Y181C ; result: 0.1
Cc1cn([C@@H]2O[C@H](CO[Si](C)(C)C(C)(C)C)C3(OS(=O)(=O)C=C3N)[C@H]2O[Si](C)(C)C(C)(C)C)c(=O)n(C)c1=O ; cells: CEM ; read by: syncytia ; strain: IIIB nevirapine-resistant (RT Y181C) ; mutations: RT-Y181C ; result: >1670
CC[C@H]1C(=O)Nc2ccc(F)cc2N1C(=O)OC(C)C ; cells: CEM ; read by: cytopathic effect ; strain: Q-1 (RT T139K Y181C Y188D/Y) ; mutations: RT-T139K Y181C Y188D/Y ; result: 36
CCc1c(Sc2ccccn2)n(COCc2ccccc2)c(=O)[nH]c1=O ; cells: CEM + CEM-SS ; read by: cytopathic effect / XTT ; strain: NL4-3 ; mutations: RT-K103N ; result: 21.1
Nc1ccn([C@@H]2CS[C@H](CO)O2)c(=O)n1 ; cells: PBMC ; read by: p24 ; strain: Recombinant ; mutations: RT-M184V ; result: 2.5
CC(C)(C)C(=O)c1sc(C(=O)NCc2ccccc2)c(O)c1O ; mutations: INTG-T66I S153Y ; result: 1
CC(C)CN(C[C@@H](O)[C@H](Cc1ccccc1)NC(=O)O[C@H]1CCO[C@H]2OCC[C@H]21)S(=O)(=O)c1ccc2nc(NC3CC3)sc2c1 ; cells: MT-4 ; read by: p24 / luminescence ; strain: NL4-3 ; mutations: L10F V32I L33F M46L I54M A71V ; result: 11
Cc1cn([C@H]2C=C[C@@H](CO)O2)c(=O)[nH]c1=O ; cells: MT-2 ; read by: cytopathic effect / XTT ; strain: Site-directed mutant ; mutations: RT-K65R Y115F M184V ; result: 1.3
Nc1nc2c(ncn2[C@H]2CO[C@@H](CO)O2)c(=O)[nH]1 ; strain: RT M41L 67N 74V 184V 210W 215Y 181C ; mutations: RT-M41L D67N L74V Y181C M184V L210W T215Y ; result: 7.8
CC(C)=CCN1Cc2cc(Cl)cc3[nH]c(=S)n(c23)C[C@@H]1C ; cells: CEM ; read by: syncytia ; strain: IIIB TIBO R82913 STR-B02 (RT L100I E138K) ; mutations: RT-L100I E138K ; result: 250
Cc1cc(S(N)(=O)=O)ccc1NC(=O)COc1ccc(Cl)cc1C(=O)c1cc(Cl)cc(C#N)c1 ; cells: MAGI ; read by: β-galactosidase ; strain: NNRTI-resistant (RT V106I P236L) ; mutations: RT-V106I P236L ; result: 13.5
C[C@H](Cn1cnc2c(N)ncnc21)OCP(=O)(O)O ; cells: HeLa ; read by: luciferase ; strain: Recombinant ; mutations: RT-M184V ; result: 1
Cc1occc1C(=S)Nc1ccc(Cl)c(/C=N/OC(C)(C)C)c1 ; cells: CEM + CEM-SS ; read by: cytopathic effect / XTT ; strain: NL4-3 (RT Y181C) ; mutations: RT-Y181C ; result: 6.25
CCOP(=O)(COc1ccc(C[C@H](NC(=O)O[C@H]2CO[C@H]3OCC[C@H]32)[C@H](O)CN(CC(C)C)S(=O)(=O)c2ccc(OC)cc2)cc1)OCC ; cells: MT-2 ; read by: p24 / ELISA ; strain: IIIB ; mutations: K112M K113E V128I M200I H219P ; result: 3.6
N#Cc1cc2[nH]c3ccccc3c2n(-c2ccc([N+](=O)[O-])cc2)c1=O ; cells: HeLa ; read by: luciferase ; strain: NNRTI-resistant ; mutations: RT-K103N Y188L ; result: 0.7
CC(C)=CCN1Cc2cccc3[nH]c(=S)n(c23)C[C@@H]1C ; cells: CEM + CEM-SS ; read by: cytopathic effect / XTT ; strain: IIIB(CALO-R(II)) ; mutations: RT-V90I T139I P225S ; result: 2.2
Nc1ncnc2c1ncn2CCOCP(=O)(O)O ; cells: CEM ; read by: syncytia ; strain: IIIB TIBO R82913 STR-2 (RT K103N) ; mutations: RT-K103N ; result: 1.43
Cc1cn([C@H]2C[C@H](N=[N+]=[N-])[C@@H](CO)O2)c(=O)[nH]c1=O ; mutations: INTG-S153Y ; result: 1
Cc1cn([C@H]2C[C@H](N=[N+]=[N-])[C@@H](CO)O2)c(=O)[nH]c1=O ; cells: HeLa ; read by: luciferase ; strain: NRTI resistant ; mutations: RT-D67N T69N M184V T215F K219Q ; result: 4.8
O=C1O[C@H]2[C@@H]3OC(=O)c4cc(O)c(O)c(O)c4-c4c(cc(O)c(O)c4O)C(=O)OC[C@H]2O[C@@H](OC(=O)c2cc(O)c(O)c(O)c2)[C@@H]3OC(=O)c2cc(O)c(O)c3c2[C@@H]2C1=CC(=O)[C@](O)(O3)C2(O)O ; cells: MAGI ; strain: NRTI resistant (RT D67N K70R T215F K219Q) ARP141 ; mutations: RT-D67N K70R T215F K219Q ; result: 1.12
CC(C)CN(C[C@@H](O)[C@H](Cc1ccccc1)NC(=O)O[C@H]1CCOC1)S(=O)(=O)c1ccc(N)cc1 ; cells: MT-4 ; read by: p24 ; strain: NL4-3 ; mutations: PR-N88D ; result: 0.25
CC(C)=CCN1c2cc(Cl)cc3[nH]c(=S)n(c23)C[C@@H]1C ; cells: MT-4 ; mutations: RT-D67N K70R T215Y K219Q Y181C ; result: >30
CC1=C(C(=O)Nc2ccc(Cl)c(C(=O)OC(C)C)c2)SCCO1 ; cells: CEM + CEM-SS ; read by: cytopathic effect / XTT ; strain: IIIB(TIBO-R(I)) ; mutations: RT-A98G V108I ; result: >333
CC(C)=CCOc1cc(NC(=S)c2ccoc2C)ccc1Cl ; cells: CEM ; read by: cytopathic effect ; strain: P-1 (RT-K103N Y144F) ; mutations: RT-K103N Y144F ; result: 20
CC(C)CN(C[C@@H](O)[C@H](Cc1ccccc1)NC(=O)[C@H](CC(N)=O)NC(=O)c1ccc2ccccc2n1)C(=O)NC(C)(C)C ; cells: MT-4 ; read by: p24 ; strain: NL4-3 ; mutations: PR-L10R M46I L63P 184V ; result: 7.5
Cc1cn([C@H]2C[C@H](N=[N+]=[N-])[C@@H](CO)O2)c(=O)[nH]c1=O ; cells: CEM + CEM-SS ; read by: XTT ; strain: Nevirapine-resistant (RT Y181C) ; mutations: RT-Y181C ; result: 0.6
Cc1cn([C@H]2C[C@H](N=[N+]=[N-])[C@@H](CO)O2)c(=O)[nH]c1=O ; cells: H9 ; read by: p24 ; strain: B9 (RT L100I V106A G190A) ; mutations: RT-L100I V106A G190A ; result: ~1
Cc1ccc(S(=O)(=O)N(CC(C)C)C[C@@H](O)[C@H](Cc2ccccc2)NC(=O)O[C@H]2CO[C@H]3OCC[C@H]32)cc1 ; cells: MT-2 ; read by: ATP ; strain: IIIB ; mutations: 8374-P62 ; result: 5.2
Nc1ccn([C@H]2CC[C@@H](CO)O2)c(=O)n1 ; cells: HELA-CD4+ ; read by: plaque count ; strain: JF8(RT-D67N T69D) ; mutations: RT-D67N T69D ; result: 1.44
CCN[C@H]1CO[C@@H]2OCC[C@H](OC(=O)N[C@@H](Cc3ccccc3)[C@H](O)CN(CC(C)C)S(=O)(=O)c3ccc4nc(NC5CC5)sc4c3)[C@@H]21 ; cells: MT-4 ; read by: p24 / luminescence ; strain: NL4-3 ; mutations: L23I E34Q K43I M46I I50L G51A L63P A71V V82A T91A ; result: 0.3
Cc1ccnc2c1NC(=O)c1cccnc1N2C1CC1 ; cells: H9 ; read by: p24 ; strain: B8 (RT K101I K103N Y181C G190A) ; mutations: RT-K101I K103N Y181C G190A ; result: >111
Cc1ccnc2c1NC(=O)c1cccnc1N2C1CC1 ; cells: CEM + CEM-SS ; read by: cytopathic effect / XTT ; strain: NL4-3 (RT L100I) ; mutations: RT-L100I ; result: 5
Cc1c(Sc2ccccc2)n(COCCO)c(=O)[nH]c1=O ; cells: CEM + CEM-SS ; read by: cytopathic effect / XTT ; strain: IIIB HEPT-resistant (RT P236L) ; mutations: RT-P236L ; result: >18
Cc1ccnc2c1NC(=O)c1cccnc1N2C1CC1 ; cells: HT4 + HT4 LacZ-1 ; read by: plaque count ; strain: HIVRTMF (RT L74V Y181C) ; mutations: RT-L74V Y181C T215Y ; result: 53.3
CC(=O)c1ccc(C)cc1NC(C(N)=O)c1c(Cl)cccc1Cl ; cells: MAGI ; read by: MTT ; strain: IIIB ; mutations: RT-Y181C ; result: >222
CCN(c1nc(F)ccc1NC(C)(C)C)C1CCN(C(=O)c2cc3cc(NC(=O)N4CCN(C)CC4)ccc3[nH]2)CC1 ; cells: MT-2 ; read by: ATP ; strain: IIIB ; mutations: 8374-P36 GS-8374-resistant ; result: 1.4
Cc1cn([C@H]2C[C@H](N=[N+]=[N-])[C@@H](CO)O2)c(=O)[nH]c1=O ; cells: CEM + CEM-SS ; read by: cytopathic effect / XTT ; strain: NL4-3 ; mutations: RT-V106I ; result: 3
CC(C)Oc1ccc(Cc2ccccc2)cc1C(=O)CC(=O)C(=O)O ; mutations: INTG-T66I ; result: 1
O=c1[nH]cnc2c1ncn2[C@H]1CC[C@@H](CO)O1 ; cells: PBMC ; read by: p24 ; strain: Recombinant ; mutations: RT-F77L ; result: 0.1
Cc1ccnc2c1NC(=O)c1cccnc1N2C1CC1 ; cells: CEM + CEM-SS ; read by: cytopathic effect / XTT ; strain: CALO(RT-T139I) ; mutations: RT-T139I ; result: 1
O=c1[nH]cnc2c1ncn2[C@H]1CC[C@@H](CO)O1 ; strain: RT-41L 69[SS] 215Y ; mutations: RT M41L T69SS insertion T215Y ; result: 3
C[C@H](Cn1cnc2c(N)ncnc21)OCP(=O)(O)O ; cells: MT-2 ; read by: p24 ; strain: 74V (ddI- ddC-resistant RT L74V) ; mutations: RT-L74V ; result: 0.941
CC(=O)c1ccc(C)cc1NC(C(N)=O)c1c(Cl)cccc1Cl ; cells: CEM + CEM-SS ; read by: XTT ; strain: Costatolide-resistant (RT L100I T139I) ; mutations: RT-L100I T139I ; result: 3
C/C=C/CSc1cc(NC(=S)c2ccsc2C)ccc1Cl ; cells: CEM + CEM-SS ; read by: cytopathic effect / XTT ; strain: NL4-3 (RT L74V) ; mutations: RT-L74V ; result: 0.4
Nc1ccn([C@H]2CC[C@@H](CO)O2)c(=O)n1 ; cells: CEM ; read by: syncytia ; strain: IIIB TIBO R82913 STR-B02 (RT L100I E138K) ; mutations: RT-L100I E138K ; result: 0.3
Cc1cn([C@H]2C[C@H](N=[N+]=[N-])[C@@H](CO)O2)c(=O)[nH]c1=O ; cells: MT-2 ; read by: cytopathic effect / XTT ; strain: Site-directed mutant ; mutations: RT-K65R Y115F M184V ; result: 1.4
CC(C)(C)NC(=O)[C@@H]1C[C@@H]2CCCC[C@@H]2CN1C[C@@H](O)[C@H](Cc1ccccc1)NC(=O)[C@H](CC(N)=O)NC(=O)c1ccc2ccccc2n1 ; cells: MT-4 ; read by: p24 ; strain: NL4-3 ; mutations: PR-M46I L63P ; result: 1
c1ccc2c(c1)sc1nccn12 ; cells: CEM + CEM-SS ; read by: cytopathic effect / XTT ; strain: IIIB(TIBO-R(I)) ; mutations: RT-A98G V108I ; result: >200
CC(C)Nc1cccnc1N1CCN(C(=O)c2cc3cc(NS(C)(=O)=O)ccc3[nH]2)CC1 ; cells: CEM ; read by: cytopathic effect ; strain: Y-1 (RT-K103N) ; mutations: RT-K103N ; result: 200
Cc1ccnc2c1NC(=O)c1cccnc1N2C1CC1 ; cells: CEM + CEM-SS ; read by: XTT ; strain: NL4-3 ; mutations: RT-V179D ; result: 1.5
CN[C@H]1CO[C@@H]2OCC[C@H](OC(=O)N[C@@H](Cc3ccccc3)[C@H](O)CN(CC(C)C)S(=O)(=O)c3ccc4nc(NC5CC5)sc4c3)[C@@H]21 ; cells: MT-4 ; read by: p24 / luminescence ; strain: NL4-3 ; mutations: L10I I15V K20R L24I V32I M36I M46I L63P K70Q V82A I84V L89M ; result: 0.6

For reference, 5 entries again:

| structure | cells | read by | strain | mutations | result |
|---|---|---|---|---|---|
| CC(C)(C)NC(=O)[C@@H]1C[C@@H]2CCCC[C@@H]2CN1C[C@@H](O)[C@H](Cc1ccccc1)NC(=O)[C@H](CC(N)=O)NC(=O)c1ccc2ccccc2n1 | MT-4 | p24 | NL4-3 | PR-M46I L63P | 1 |
| N#Cc1cc2[nH]c3ccccc3c2n(-c2ccc([N+](=O)[O-])cc2)c1=O | HeLa | luciferase | NNRTI-resistant | RT-K103N Y188L | 0.7 |
| O=c1[nH]cnc2c1ncn2[C@H]1CC[C@@H](CO)O1 | CEM | syncytia | IIIB TSAO-T(RT-E138K) | RT-E138K | 2 |
| CC(=O)c1ccc(C)cc1NC(C(N)=O)c1c(Cl)cccc1Cl | CEM + CEM-SS | XTT | Costatolide-resistant (RT L100I T139I) | RT-L100I T139I | 3 |
| CC(C)=CCN1Cc2cc(Cl)cc3[nH]c(=S)n(c23)C[C@@H]1C | CEM | syncytia | IIIB TIBO R82913 STR-B02 (RT L100I E138K) | RT-L100I E138K | 250 |